# Laboratory results taken from patent US9476087B2, “Methods and compounds for detecting beta-lactamase activity” (Nanyang Technological University, priority 2008, dated 2016).
# Test: Interaction of free dithiol linkers with suspension of gold nanoparticles
# Details: linkers 5 mm as printed
row,Substance,binding of free dithiol linker to gold nanoparticles
1,"di-4-aminothiolphenol-conjugated 1,2-bis(2-aminoethoxy)ethane","rapid, occurring within seconds"
2,"di-2-mercaptoethylamine-conjugated 1,2-bis(2-aminoethoxy)ethane","rapid, occurring within seconds"
